Assay results from paper PMC12724200 (mSphere, 2025).

Protein sequences, listed by entry. Tags and fused reporters are not part of them. Residues count along the entry.
UniProt A0A679LAX5, 1-690: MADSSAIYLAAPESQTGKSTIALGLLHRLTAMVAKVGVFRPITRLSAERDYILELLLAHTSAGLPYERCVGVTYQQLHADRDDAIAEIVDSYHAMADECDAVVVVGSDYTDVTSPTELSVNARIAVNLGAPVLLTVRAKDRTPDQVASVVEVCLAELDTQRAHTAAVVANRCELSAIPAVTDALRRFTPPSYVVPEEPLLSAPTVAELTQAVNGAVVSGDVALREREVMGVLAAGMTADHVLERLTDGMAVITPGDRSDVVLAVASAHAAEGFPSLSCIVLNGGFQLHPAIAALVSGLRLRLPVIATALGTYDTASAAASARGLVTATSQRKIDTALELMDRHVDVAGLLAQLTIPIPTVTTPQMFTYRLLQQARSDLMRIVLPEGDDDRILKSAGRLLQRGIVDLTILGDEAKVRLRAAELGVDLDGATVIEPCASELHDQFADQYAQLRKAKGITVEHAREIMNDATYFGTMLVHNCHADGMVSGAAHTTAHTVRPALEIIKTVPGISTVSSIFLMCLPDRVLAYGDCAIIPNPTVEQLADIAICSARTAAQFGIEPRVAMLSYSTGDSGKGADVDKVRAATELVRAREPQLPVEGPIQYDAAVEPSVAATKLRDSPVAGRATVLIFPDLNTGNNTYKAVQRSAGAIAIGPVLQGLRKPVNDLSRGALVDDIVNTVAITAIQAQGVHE

Target: recombinant wild-type M. bovis BCG PTA (Mycobacterium bovis, UniProt A0A679LAX5)
Assay type: biochemical

For Dimethyldithiocarbamate [DMDC], the IC50 was 951 µM.
